Results of unrelated studies side by side (data: NIAID ChemDB).

Common to all: toxicity to cultured cells; read-out: CC50

Blank or dashed fields: not listed here.

compound	cell line	read by	result
N/C(=N/O)c1cn([C@@H]2O[C@H](CO)[C@@H](O)[C@@H]2O)c2ncnc(N)c12	MEF	-	175 µM
C=C1C(C(C)C2CC=C(C)C(=O)O2)=CC[C@]2(C)C1C[C@]1(O)C=C3C=CC(=O)OC(C)(C)C3CCC21	BEL-7402	MTT	1.05 µM
O=C1CN=C(c2ccccc2)c2ccccc2N1CCC1CC(Br)=NO1	J774.1 macrophage cell line	resazurin / absorbance	22.3 µM
Cc1cn([C@@H]2C[C@@H](O)[C@H](CO)O2)c(=O)[nH]c1=O	MA-104	-	>100 µM
N[C@@H]1C2CC(c3ccccc32)[C@H]1N	G-2	-	>100 µg/mL
Cc1cn2c(C(=O)Nc3ccc(Oc4cccc(C(F)(F)F)c4)cc3)c(C)nc2s1	VERO E6	luminescence	>50 µM
O=C(c1nn2c(C(F)(F)F)cc(C3CC3)cc2c1Cl)N1CCC2(OCC3(CC3)CO2)[C@H](O)C1	Huh7	ATP	>50 µM
O=c1[nH]c(=O)n([C@H]2C[C@H](O)[C@@H](COP3(=O)OCc4c(Cl)cccc4O3)O2)cc1/C=C/Br	HELF	-	87.5 µg/mL
NC(=O)c1[nH]nc([C@@H]2O[C@H](CO)[C@@H](O)[C@H]2O)c1O	Primary duck hepatocytes	-	25 µg/mL
Cc1cn([C@H]2C[C@H](N=[N+]=[N-])[C@@H](CO)O2)c(=O)[nH]c1=O	PBMC	tetrazolium	95.6 µM
COc1ccc2c(c1)COP(=O)(OC[C@H]1O[C@@H](n3cc(/C=C/Br)c(=O)[nH]c3=O)C[C@@H]1O)O2	HELF	-	>128 µg/mL
O=C(O)c1ccc(O)c(O)c1	HepG2.2.15	MTT	>8340 µM
O=c1[nH]c(=O)n([C@H]2C[C@H](O)[C@@H](COP3(=O)OCc4cc(-c5ccccc5)ccc4O3)O2)cc1/C=C/Br	HELF	-	16.5 µg/mL
CCC[C@H](NC(=O)[C@@H]1C2CCCC2CN1C(=O)[C@@H](NC(=O)[C@@H](NC(=O)c1cnccn1)C1CCCCC1)C(C)(C)C)C(=O)C(=O)N[C@@H](C)c1ccncc1	Huh7	-	73.6 µM
N[C@H]1CC2CC1c1ccccc12	G-2	-	>100 µg/mL
Cc1ccc(-c2ccc3c(c2)C=C(C(=O)Nc2ccc(C[N+](C)(C)C4CCOCC4)cc2)CCC3)cc1	THP-1	-	~50 µM
O=C(O)c1ccc(O)cc1	HepG2.2.15	MTT	>7000 µM
CCCc1cc(=O)oc2c3c(c4c(c12)OC(C)(C)C=C4)O[C@H](C)[C@@H](C)[C@@H]3O	MM	-	10–20 µM
COc1c(C)c2c(c(O)c1C/C=C(\C)CO)C(=O)OC2	MDBK	-	89 µM
Nc1ncnc2c1ncn2[C@H]1CC[C@@H](CO)O1	Primary duck hepatocytes	-	>200 µg/mL
Nc1nc2c(ncn2COCCO)c(=O)[nH]1	SupT1	-	>250 µM
CCCc1cc(=O)oc2c3c(c4c(c12)OC(C)(C)C=C4)O[C@@H](C)[C@H](C)[C@@H]3O	MM	-	10–20 µM
O=C(c1nn2c(C(F)(F)F)cc(C3CC3)cc2c1Cl)N1CCC2(CC1)OCCO2	Huh7	ATP	>50 µM
CCCC(NC(=O)[C@@H]1C2CCCC2CN1C(=O)[C@@H](NC(=O)[C@H](CC1CCCCC1)NC(=O)c1cnccn1)C(C)(C)C)C(=O)C(=O)NC1CC1	Huh7	-	86.5 µM
O=C1C[C@@H](c2ccc(O)cc2)Oc2cc(OC3O[C@H](CO)[C@@H](O)[C@H](O)[C@H]3O)cc(O)c21	HepG2.2.15	MTT	>2550 µM
NC(=O)c1c[se]c([C@@H]2O[C@H](CO)[C@@H](O)[C@H]2O)n1	VERO 76	-	320 µg/mL
CC[C@@]1(O)C(=O)OCc2c1cc1n(c2=O)Cc2cc3ccccc3nc2-1	SF268	-	0.07 µM
O=C(NC1N=C(c2ccccc2)c2ccccc2NC1=O)c1ccccc1O	HEP-2	-	8.7 µM
NC(=S)c1cn([C@@H]2O[C@H](CO)[C@@H](O)[C@@H]2O)c2ncnc(N)c12	MEF	-	1.7 µM
Nc1ccn([C@@H]2O[C@H](CO)[C@@H](O)[C@@H]2O)c(=O)n1	Primary duck hepatocytes	-	200 µg/mL
O=C(c1nn2c(C(F)(F)F)cc(C3CC3)cc2c1Cl)N1CCC2(CC1)OCCCO2	Huh7	ATP	>50 µM
C[C@@]1(O)[C@H](O)[C@@H](CO)O[C@H]1n1ccc(N)nc1=O	RFP-NLS-IPS	-	>300 µM
COc1ccc([C@H]2OC[C@H]3[C@@H]2CO[C@@H]3c2cc(OC)c(O)c(OC)c2)cc1O	HepG2.2.15	MTT	480 µM
CCC[C@H](NC(=O)[C@@H]1C2CCCC2CN1C(=O)[C@@H](NC(=O)[C@@H](NC(=O)c1cnccn1)C1CCCCC1)C(C)(C)C)C(=O)C(=O)N[C@@H](C)c1ccc(C)cc1	Huh7	-	63 µM
O=c1ccn([C@@H]2CC[C@H](CO)O2)c(=O)[nH]1	Primary duck hepatocytes	-	200 µg/mL
CC1=CCC(C(C)C2=CC[C@]3(C)C(=C2C)C[C@]2(O)C=C4C=CC(=O)OC(C)(C)C4[C@H](O)CC23)OC1=O	HL-60	MTT	22.65 µM
CC1(C)COC2(CCN(C(=O)c3nn4c(C(F)(F)F)cc(C5CC5)cc4c3Cl)CC2)OC1	Huh7	ATP	>25 µM
Nc1ncnc2c1ncn2CCOCP(=O)(O)O	SupT1	-	43 µM
COc1cc2ccc(=O)oc2cc1O	HepG2.2.15	MTT	1820 µM
Cc1ccc(NC(=O)NC2CCCCCCC2)cc1Cl	CCL-81	MTT	>400 µg/mL
COc1c(C)c2c(c(O)c1C/C=C(\C)COP(=O)(O)CP(=O)(O)OC[C@H]1O[C@@H](n3cnc4c(N)ncnc43)[C@H](O)[C@@H]1O)C(=O)OC2	MDBK	-	>100 µM
C=C[C@]1(C)C=C2C(=O)c3c(NC=O)cccc3C(C)(C)[C@H]2C[C@H]1O	NCI-H460	-	>100 µM
CC(C)(C)NC(=O)NC1N=C(c2ccccc2)c2ccccc2NC1=O	HEP-2	-	5 µM
N#Cc1cc(NC(=O)[C@H]2CCN(C(=O)C(=O)NC3(c4cn[nH]n4)CC(F)(F)C3)C2)ccc1F	HepG2.117	luminescence	>50 µM
O=C(c1nn2c(C(F)(F)F)cc(C3CC3)cc2c1Cl)N1CCC2(CC1)OCC(c1ccccc1)CO2	Huh7	ATP	>50 µM
C=CC(O)(CCC(C)C1CCC2C3CCC4C[C@@H](O)CC[C@]4(C)C3=CC[C@]12C)C(C)C	Hs27	ATP / luminescence	>100 µM
Nc1ccn([C@@H]2C[C@@H](O)[C@H](CO)O2)c(=O)n1	CV-1	-	>100 µM
C=Cc1cn([C@@H]2O[C@H](CO)[C@@H](O)[C@@H]2O)c(=O)[nH]c1=O	HELF	-	620 µg/mL
Cc1cccc2c1OP(=O)(OC[C@H]1O[C@@H](n3cc(/C=C/Br)c(=O)[nH]c3=O)C[C@@H]1OC(=O)CN)OC2	HELF	-	87 µg/mL
O=C(NC1N=C(c2ccccc2)c2ccccc2NC1=O)c1ccccc1I	HEP-2	-	8.3 µM
Nc1nc2c(ncn2CCC(CO)CO)c(=O)[nH]1	CD4+ T lymphocytes	-	>250 µM
C[C@@H]1[C@H](O)[C@@H](C)/C=C/C=C/CC/C=C/C=C/C=C/C=C/C(O[C@H]2O[C@H](C)[C@@H](O)[C@H](N)[C@@H]2O)CC2O[C@](O)(CC(O)C(O)CCC(O)CC(O)CC(O)CC(=O)O[C@H]1C)CC(O)C2C(=O)O	Valsa mali	-	12.3 µM
COc1ccc(C/C=C/C=C/C(=O)NCC(C)C)cc1	J774 macrophages	MTT / absorbance	77.05 µg/mL
O=C(c1nn2c(C(F)(F)F)cc(C3CC3)cc2c1Cl)N1CCC2(CC1)OCCCCO2	Huh7	ATP	>25 µM
COC(=O)/C(C)=C/Cc1c(O)c2c(c(C)c1OC)COC2=O	MDBK	-	91 µM
Nc1ncnc2c1ncn2[C@@H]1C[C@@H](O)[C@H](CO)O1	MA-104	-	>100 µM
Nc1ccn([C@@H]2O[C@H](CO)C[C@@H]2F)c(=O)n1	M0.MO	-	3.3 µg/mL
Cc1cccc2c1OP(=O)(OC[C@H]1O[C@@H](n3cc(/C=C/Br)c(=O)[nH]c3=O)C[C@@H]1OC(=O)[C@@H](C)N)OC2	HELF	-	>128 µg/mL
Cc1c(O)cccc1C(=O)N[C@@H](CSc1ccccc1)[C@H](O)CN1C[C@H]2CCCC[C@H]2C[C@H]1C(=O)NC(C)(C)C	PBMC	tetrazolium	3.5 µM
O=C(c1nn2c(C(F)(F)F)cc(C3CC3)cc2c1Cl)N1CCC2(CC1)OCC1(CO2)CC(O)C1	Huh7	ATP	>50 µM
CC(C)C(=O)O[C@H]1C[C@H](n2cc(/C=C/Br)c(=O)[nH]c2=O)O[C@@H]1COP1(=O)OCc2ccccc2O1	HELF	-	72.5 µg/mL
CCCCC1CN(S(=O)(=O)C2CCOCC2)CCC12CCN(C1(C)CCN(C(=O)c3c(C)ncnc3C)CC1)CC2	CEM-R5	-	0.006 µM
COc1c(C)c2c(c(O)c1C/C=C(\C)CCCO)C(=O)OC2	MDBK	-	37 µM
O=c1[nH]c(=O)n([C@H]2C[C@H](O)[C@@H](COP3(=O)OCc4cc(Cl)ccc4O3)O2)cc1/C=C/Br	HELF	-	>128 µg/mL
C=C(C)C1CCC2[C@]3(CC[C@]4(C)/C(=C(\C)CC/C=C(/C)C(=O)O)CC[C@@]24C)C[C@]13CCC(=O)O	BEL-7402	MTT	24.88 µM
O=Cc1cc(O)c(O)c(O)c1	HepG2.2.15	MTT	1390 µM
O=C(O)c1cc(O)cc(O)c1N=Nc1ccc(/C=C/c2ccc(N=Nc3c(O)cc(O)cc3C(=O)O)cc2S(=O)(=O)O)c(S(=O)(=O)O)c1	Macrophage	-	160 µg/mL
c1cc(CN2CCCNCCNCCCNCC2)ccc1CN1CCCNCCNCCCNCC1	MT-4/HUT-78(IIIB+)	-	>250 µg/mL
NC(=O)c1cn([C@@H]2O[C@H](CO)[C@@H](O)[C@@H]2O)c2ncnc(N)c12	MEF	-	9 µM
Nc1ncnc2c1c(-c1ccc(C(F)(F)F)cc1)cn2[C@@H]1O[C@H](CO)[C@@H](O)[C@H]1O	BJ	MTT	59.9 µM
O=C(c1nn2c(C(F)(F)F)cc(C3CC3)cc2c1Cl)N1CCC2(CC1)OCC1(CC1)CO2	Huh7	ATP	>50 µM
COc1ccc(C(C)(C)C)cc1C(=O)NC1N=C(c2ccccc2)c2ccccc2NC1=O	HEP-2	-	6.1 µM
N=C(N)c1cn([C@H]2C[C@H](O)[C@@H](CO)O2)c2ncnc(N)c12	MEF	-	17 µM
CC(C)=CCCc1ccc2c(c1)C(=O)C(N1CCCC1)=CC2=O	Human fibroblast 2C4	MTT	324 µM
Cl.F/C(COc1ccc2c(c1)[nH]c1ccccc12)=C1/CN2CCC1CC2	Huh-7.5.1-8	XTT	>1.5 µM
Nc1nc2c(ncn2C[C@]2(CO)C[C@H]2CO)c(=O)[nH]1	TPA-stimulated BCBL-1	-	≥25 µM
CCC[C@H](NC(=O)[C@@H]1C2CCCC2CN1C(=O)[C@@H](NC(=O)[C@@H](NC(=O)c1cnccn1)C1CCCCC1)C(C)(C)C)C(=O)C(=O)N[C@@H](C)Cc1ccccc1	Huh7	-	34.3 µM

The first 5 rows once more:

compound	cell line	read by	result
N/C(=N/O)c1cn([C@@H]2O[C@H](CO)[C@@H](O)[C@@H]2O)c2ncnc(N)c12	MEF	-	175 µM
C=C1C(C(C)C2CC=C(C)C(=O)O2)=CC[C@]2(C)C1C[C@]1(O)C=C3C=CC(=O)OC(C)(C)C3CCC21	BEL-7402	MTT	1.05 µM
O=C1CN=C(c2ccccc2)c2ccccc2N1CCC1CC(Br)=NO1	J774.1 macrophage cell line	resazurin / absorbance	22.3 µM
Cc1cn([C@@H]2C[C@@H](O)[C@H](CO)O2)c(=O)[nH]c1=O	MA-104	-	>100 µM
N[C@@H]1C2CC(c3ccccc32)[C@H]1N	G-2	-	>100 µg/mL

CCn is the concentration with n% toxicity to the cells. Rows are shuffled and stem from different studies. Two numbers with a dash give a range or band.